Laboratory results reported in paper PMC9781087, “Discovery of New Microbial Collagenase Inhibitors” (Life, 2022).

Chains of the proteins cited; added tags and fusions are not shown. Residues count along the entry.
UniProt P43153, 87-1104 limits assumed: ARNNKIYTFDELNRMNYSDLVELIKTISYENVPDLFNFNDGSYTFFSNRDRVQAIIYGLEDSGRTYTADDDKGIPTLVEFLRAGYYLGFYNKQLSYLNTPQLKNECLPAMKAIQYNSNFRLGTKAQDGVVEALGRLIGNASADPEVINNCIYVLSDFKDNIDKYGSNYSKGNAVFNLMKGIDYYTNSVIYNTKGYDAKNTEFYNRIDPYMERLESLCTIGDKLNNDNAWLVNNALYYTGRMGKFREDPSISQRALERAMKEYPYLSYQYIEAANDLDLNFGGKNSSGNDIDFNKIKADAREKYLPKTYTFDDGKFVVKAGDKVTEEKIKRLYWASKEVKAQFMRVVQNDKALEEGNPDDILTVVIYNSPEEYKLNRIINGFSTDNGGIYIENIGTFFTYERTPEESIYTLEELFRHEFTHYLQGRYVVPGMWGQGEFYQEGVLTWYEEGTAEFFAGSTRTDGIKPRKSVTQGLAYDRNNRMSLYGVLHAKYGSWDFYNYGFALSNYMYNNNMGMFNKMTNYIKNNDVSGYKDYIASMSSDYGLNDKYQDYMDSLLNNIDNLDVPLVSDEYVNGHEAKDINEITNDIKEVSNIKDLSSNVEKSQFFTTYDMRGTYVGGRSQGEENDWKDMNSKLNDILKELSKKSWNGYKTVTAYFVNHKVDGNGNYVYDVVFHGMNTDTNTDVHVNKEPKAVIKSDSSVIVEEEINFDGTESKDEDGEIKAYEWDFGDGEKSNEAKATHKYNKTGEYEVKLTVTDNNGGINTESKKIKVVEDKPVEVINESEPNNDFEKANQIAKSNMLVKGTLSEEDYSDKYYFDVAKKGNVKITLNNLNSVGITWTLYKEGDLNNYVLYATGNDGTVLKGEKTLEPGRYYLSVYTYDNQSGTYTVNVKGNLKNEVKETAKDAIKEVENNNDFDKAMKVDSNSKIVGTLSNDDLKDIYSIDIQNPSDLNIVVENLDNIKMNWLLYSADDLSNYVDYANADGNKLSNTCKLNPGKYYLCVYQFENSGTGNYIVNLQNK

Molecular target: collagenase A (ColA) (Clostridium perfringens, UniProt P43153)
Assay type: biochemical, C. perfringens

Compound: COc1cc(/C=C/C(=O)O)ccc1O [ferulic acid]
- inhibitory effect on ColA (in words): low effects
